Source: article PMC9728131, “Host acid signal controls Salmonella flagella biogenesis through CadC-YdiV axis”
For some assays here: The exact form of at least one protein or probe is not confirmed. For some assays here: Where a protein sequence is shown, tags need not be part of it.

Assays:
[1] = tested on: CadCc; assay: competition EMSA; details: displaces 30 uM H-NS, starts at 18.75 uM CadCc, complete at about 150 uM; EMSA: 20 mM Tris-HCl pH 8.0, 100 mM NaCl, 1 mM MgCl2, 1 mM ZnCl2, 4% glycerol, RT 10 min (competition 4 C, 30 min + 30 min); recombinant protein; protein details: N-terminal 6xHis (pGL01); probe letters rebuilt from the primers and the genome
[2] = molecular target: T1, H-NS (UniProt P0ACF8); assay: EMSA; details: shift at protein:DNA ratio above 4, 5 uM DNA; EMSA: 20 mM Tris-HCl pH 8.0, 100 mM NaCl, 1 mM MgCl2, 1 mM ZnCl2, 4% glycerol, RT 10 min (competition 4 C, 30 min + 30 min); recombinant protein; protein details: N-terminal 6xHis (pGL01); probe letters rebuilt from the primers and the genome
T1 sequence (looked up, limits assumed): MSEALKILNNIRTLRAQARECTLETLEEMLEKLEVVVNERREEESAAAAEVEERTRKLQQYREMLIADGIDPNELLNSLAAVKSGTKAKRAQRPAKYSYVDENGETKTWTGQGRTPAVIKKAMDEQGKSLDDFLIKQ

[3] = tested on: CadCc; assay: EMSA; details: shift at protein:DNA ratio above 2, 5 uM DNA; EMSA: 20 mM Tris-HCl pH 8.0, 100 mM NaCl, 1 mM MgCl2, 1 mM ZnCl2, 4% glycerol, RT 10 min (competition 4 C, 30 min + 30 min); recombinant protein; protein details: N-terminal 6xHis (pGL01); probe letters rebuilt from the primers and the genome
[4] = molecular target: T1, H-NS; assay: DNase I footprinting; details: 51 nt and 34 nt regions protected; footprinting: 30 C, 30 min; recombinant protein; protein details: N-terminal 6xHis (pGL01); label: 5' FAM on S32; probe letters rebuilt from the primers and the genome
[5] = tested on: CadCc; assay: DNase I footprinting; details: 33 nt protected; footprinting: 30 C, 30 min; recombinant protein; protein details: N-terminal 6xHis (pGL01); label: 5' FAM on S32; probe letters rebuilt from the primers and the genome

Sequence | binding result [1] | binding result [2] | binding result [3] | binding result [4] | binding result [5]
CCTCGCAGACGATATAAATTTTATAGTCTATTTTTAACATATCGCCGGTTGAACTTATGACATCTGTTGTCATCATATATAATGATATAACCGTAGCATTTACAAACGTACTTTTATTAAAAACGGGCGTGTTCACGCCCTGTGAAAAGTACAAGATTGAATATTGGTTTATAATCAGAGTAAGTTAAAAAAAGGAACCGGTTCACCGGTAAACAAGAAAAATGATGACGCTTCAATTAGTATCTGAAGTTACGTCTGTTTCCGTCCGTAGTGACTGGATGGCGAATAGCGCCCTAACCATGGGACTGGCGTA (double strand) [ydiV promoter 313 bp] | binds | binds | binds | – | –
CCTCGCAGACGATATAAATTTTATAGTCTATTTTTAACATATCGCCGGTTGAACTTATGACATCTGTTGTCATCATATATAATGATATAACCGTAGCATTTACAAACGTACTTTTATTAAAAACGGGCGTGTTCACGCCCTGTGAAAAGTACAAGATTGAATATTGGTTTATAATCAGAGTAAGTTAAAAAAAGGAACCGGTTCACCGGTAAACAAGAAAAATGATGACGCTTCAATTAGTATCTGAAGTTACGTCTGTTTCCGTCCGTAGTGACTGGATGGCGAATAGCGCCCTAACCATGGGACTGGCGTA (double strand) [ydiV promoter footprinting probe] | – | – | – | binds | binds
